Measurements published in paper PMC9837764 (Nature Communications, 2023).

Test system: Salmonella typhimurium TA 1535

SMILES	Mutagenicity TA 1535 +S9	Mutagenicity TA 1535 -S9 (Positive Control 1.5 µg/plate)	Mutagenicity TA 1535 -S9
Nc1ccc2cc3ccccc3cc2c1 [2-AA, 2-aminoanthracene, reference compound]	+		
[N-]=[N+]=[N-].[Na+] [AZS, sodium azide, reference compound]		+	
c1coc(CNc2ncnc3[nH]cnc23)c1 [MB-905, N6-furfurylaminopurine]	-		-

Like-named read-outs stand apart in the source and are kept apart here.
